Pooled drug test results. Numbers come from NIAID ChemDB, via PubChem.

Shared fields: growth or infection tests; agent: Candida albicans; read-out: MIC100

A number after MIC or MFC names an inhibition level or a share of isolates.

structure | strain | method | result
O=C(O)c1cc2[nH]c3cc4c(=O)[nH]n(-c5ccccc5)c(=O)c4cc3c2cc1C(=O)O | Clinical isolates | agar | 512 µg/mL
Nc1[nH]c(=S)nc2oc3ccc([N+](=O)[O-])cc3c(=O)c12 | MTCC 227 | broth dilution | 500 µg/mL
CC(=O)Nc1ccc(OCC(=O)N2N=C(c3nc4ccccc4[nH]3)CC2c2cccc(Cl)c2)cc1 | MTCC 227 | - | 250 µg/mL
CCCCCCn1cc[n+](COCCCCOC[n+]2ccn(CCCCCC)c2)c1 | ATCC 90028 | agar diffusion | 10 µM
CC(=O)Nc1ccc(OCC(=O)N2N=C(c3nc4ccccc4[nH]3)CC2c2ccc(C)cc2)cc1 | MTCC 227 | - | 500 µg/mL
Nc1nc(N)c2c(=O)c3ccccc3oc2n1 | MTCC 227 | broth dilution | 500 µg/mL
CCCCCCCCCCCn1cc[n+](COCCOC[n+]2ccn(CCCCCCCCCCC)c2)c1 | ATCC 90028 | agar diffusion | 17 µM
CC(=O)Nc1ccc(OCC(=O)N2N=C(c3nc4ccccc4[nH]3)CC2c2ccccc2O)cc1 | MTCC 227 | - | 500 µg/mL
FC(F)(F)c1cc(-c2cc3cc(Br)cnc3[nH]2)cc(C(F)(F)F)c1 | ATCC 10231 | - | 15.6 µg/mL
O=C(Nc1ccc(Cc2nc3ccccc3s2)cc1)c1ccc(Br)cc1 | ATCC 10231 | broth dilution | 25 µg/mL
O=C(Oc1cc2cc(Br)cnc2[nH]1)c1ccccc1 | ATCC 10231 | - | 23.5 µg/mL
CC(=O)Nc1ccc(OCC(=O)N2N=C(c3nc4ccccc4[nH]3)CC2c2ccccc2Br)cc1 | MTCC 227 | - | 250 µg/mL
CCCCn1cc[n+](COCCCCCCOC[n+]2ccn(CCCC)c2)c1 | ATCC 90028 | agar diffusion | 345 µM
O=c1ccc2c(ccc3nc(N4CCN(c5ccccn5)CC4)sc32)o1 | MTCC 183 | - | 200 µg/mL
Cc1cnc2[nH]c(-c3ccccc3)cc2c1 | ATCC 10231 | - | 15.6 µg/mL
O=c1[nH]n(-c2ccccc2)c(=O)c2cc3c(cc12)[nH]c1cc2c(=O)[nH]n(-c4ccccc4)c(=O)c2cc13 | Clinical isolates | agar | 32 µg/mL
O=c1ccc2c(ccc3nc(N4CCN(Cc5ccccc5)CC4)sc32)o1 | MTCC 183 | - | 500 µg/mL
O=C1CSC2(CCc3ccccc32)N1n1c(COc2ccc(Cl)cc2)n[nH]c1=S | - | - | 12.5 µg/mL
CC(=O)Nc1ccc(OCC(=O)N2N=C(c3nc4ccccc4[nH]3)CC2c2ccc(Cl)cc2)cc1 | MTCC 227 | - | 100 µg/mL
COc1ccc(CCC(=O)Nc2ccc(Cc3nc4ccccc4s3)cc2)cc1 | ATCC 10231 | broth dilution | 25 µg/mL
Cc1ccc2c(=O)c3c(N)[nH]c(=O)nc3oc2c1 | MTCC 227 | broth dilution | 250 µg/mL
CNCCN(C)c1ccc2[nH]c3cc4c(=O)[nH]n(-c5ccccc5)c(=O)c4cc3c2c1 | Clinical isolates | agar | 64 µg/mL
Cc1ccc(OCc2n[nH]c(=S)n2N2C(=O)CSC23CCc2ccccc23)cc1 | - | - | 3.13 µg/mL
O=C1C(Cl)C2(C(=O)Nc3c(Br)cc(Br)cc32)N1c1ccccc1[N+](=O)[O-] | MTCC 183 | - | 19 µg/mL
COc1ccc(-c2cc3cccnc3[nH]2)cc1 | ATCC 10231 | - | 15.6 µg/mL
CCCCCCCCCCn1cc[n+](COCCCCCCOC[n+]2ccn(CCCCCCCCCC)c2)c1 | ATCC 90028 | agar diffusion | 2 µM
Cc1ccccc1N1C(=O)C(Cl)C12C(=O)Nc1ccccc12 | MTCC 183 | - | 11 µg/mL
O=c1ccc2c(ccc3nc(N4CCN(c5cccc(Cl)c5Cl)CC4)sc32)o1 | MTCC 183 | - | 100 µg/mL
Cc1ccc(CC(=O)Nc2ccc(Cc3nc4ccccc4s3)cc2)cc1 | ATCC 10231 | broth dilution | 25 µg/mL
O=C1CSC2(CCc3ccccc32)N1n1c(-c2ccc([N+](=O)[O-])cc2)n[nH]c1=S | - | - | 25 µg/mL
O=C1C(Cl)C2(C(=O)Nc3c(Br)cc(Br)cc32)N1c1ccccc1 | MTCC 183 | - | 17 µg/mL
CCCCCCCCCCCCCCn1cc[n+](COCCOC[n+]2ccn(CCCCCCCCCCCCCC)c2)c1 | ATCC 90028 | agar diffusion | 16 µM
COc1ccc(C2CC(c3nc4ccccc4[nH]3)=NN2C(=O)COc2ccc(NC(C)=O)cc2)cc1 | MTCC 227 | - | 500 µg/mL
Cc1cc2[nH]c3cc4c(=O)[nH]n(-c5ccccc5)c(=O)c4cc3c2cc1C | Clinical isolates | agar | 64 µg/mL
Nc1[nH]c(=O)nc2oc3ccc(Cl)cc3c(=O)c12 | MTCC 227 | broth dilution | 250 µg/mL
Cc1ccccc1N1C(=O)C(Cl)C12C(=O)Nc1c(Br)cc(Br)cc12 | MTCC 183 | - | 19 µg/mL
O=c1ccc2c(ccc3nc(N4CCC(Cc5ccccc5)CC4)sc32)o1 | MTCC 183 | - | 200 µg/mL
O=C(Cc1ccc([N+](=O)[O-])cc1)Nc1ccc(Cc2nc3ccccc3s2)cc1 | ATCC 10231 | broth dilution | 25 µg/mL
CC(=O)Nc1ccc(OCC(=O)N2N=C(c3nc4ccccc4[nH]3)CC2c2cccc(C)c2)cc1 | MTCC 227 | - | 1000 µg/mL
Clc1cnc2[nH]ccc2c1 | ATCC 10231 | - | 31.3 µg/mL
Nc1[nH]c(=O)nc2oc3ccc([N+](=O)[O-])cc3c(=O)c12 | MTCC 227 | broth dilution | 500 µg/mL
CCCCCCn1cc[n+](COCCCOC[n+]2ccn(CCCCCC)c2)c1 | ATCC 90028 | agar diffusion | 82 µM
O=C(Nc1ccc(-c2nc3ccccc3s2)cc1)c1ccccc1 | ATCC 10231 | broth dilution | 25 µg/mL
CCCCCCCn1cc[n+](COCCOC[n+]2ccn(CCCCCCC)c2)c1 | ATCC 90028 | agar diffusion | 20 µM
O=C1CSC2(CCc3ccccc32)N1n1c(-c2cccnc2)n[nH]c1=S | - | - | 3.13 µg/mL
Cc1ccc(N2C(=O)C(Cl)C23C(=O)Nc2ccccc23)cc1 | MTCC 183 | - | 16 µg/mL
CCN1CCN(c2nc3ccc4c(ccc(=O)n4C)c3s2)CC1 | MTCC 183 | - | 250 µg/mL
CCCCCCCCCCCCCCCCOC(=O)OC1CC[C@@]2(C)C(=CCC3C2CC[C@@]2(C)C3CC[C@@H]2[C@@H](C)CCCC(C)C)C1 | ATCC 90028 | - | 840 µg/mL
Nc1nc(N)c2c(=O)c3cc(Cl)ccc3oc2n1 | MTCC 227 | broth dilution | 500 µg/mL

Repeating the first 5 entries:

{"structure": "O=C(O)c1cc2[nH]c3cc4c(=O)[nH]n(-c5ccccc5)c(=O)c4cc3c2cc1C(=O)O", "strain": "Clinical isolates", "method": "agar", "result": "512 µg/mL"}
{"structure": "Nc1[nH]c(=S)nc2oc3ccc([N+](=O)[O-])cc3c(=O)c12", "strain": "MTCC 227", "method": "broth dilution", "result": "500 µg/mL"}
{"structure": "CC(=O)Nc1ccc(OCC(=O)N2N=C(c3nc4ccccc4[nH]3)CC2c2cccc(Cl)c2)cc1", "strain": "MTCC 227", "result": "250 µg/mL"}
{"structure": "CCCCCCn1cc[n+](COCCCCOC[n+]2ccn(CCCCCC)c2)c1", "strain": "ATCC 90028", "method": "agar diffusion", "result": "10 µM"}
{"structure": "CC(=O)Nc1ccc(OCC(=O)N2N=C(c3nc4ccccc4[nH]3)CC2c2ccc(C)cc2)cc1", "strain": "MTCC 227", "result": "500 µg/mL"}

Lines come from different laboratories, so protocols vary. An empty or dashed field is not shown.